The record followed here is article PMC9959676 (Molecules, 2023).

The data set in a line: DPPH free radical scavenging assay. Particulars: mean absorbance at 517 nm, triplicate; 1.0 mL sample 0.5 mg/mL + 2 mL DPPH 0.2 mg/mL, 30 min. Here is the method:
The DPPH assay was carried out to estimate the antioxidant potential among all the compounds [29]. Then, 2 mL (0.2 mg/mL in methyl alcohol) of DPPH was mixed with 1.0 mL (0.5 mg/mL in methyl alcohol) of the sample solution in a test tube. All the reaction tubes were covered with aluminum foil and kept aside for 30 min to complete the reaction. The activity was carried out in a dark room. […] A UV-visible spectrophotometer was employed to observe a reduction in the concentration of free radicals at 517 nm. The absorbance of the control (1.0 mL methanol + 2 mL DPPH solution) was also measured. All samples were evaluated in a triplicate manner, and the mean results were recorded. The standard antioxidant (ascorbic acid) was evaluated and set as a reference/standard. The percentage of inhibition (%) was calculated using the following formula in terms of scavenging activity(S):S (%) = [(Ab − Aa)/Ab] × 100(1) where Ab = Absorbance of control; and Aa = Absorbance of the test sample
(In general: Loss of DPPH colour is used to gauge radical scavenging.)
As to `CCCCC(=O)N(Cc1ccc(-c2ccccc2-c2nnn[nH]2)cc1)C(C(=O)Oc1ccc(N)cc1)C(C)C` (stereo not drawn) [AV4, 4-aminophenyl 2-(N-((2′-(2H-tetrazol-5yl) -[1,1′-biphenyl]-4yl)methyl)pentanamido)-3methyl butanoate], the Mean was 0.405.
The value for `CCCCC(=O)N(Cc1ccc(-c2ccccc2-c2nn[nH]n2)cc1)C(C(=O)Oc1ccc(CC(N)C(=O)O)cc1)C(C)C` (stereo not drawn) [AV7, 3-(4-((2-(N-((2′-(2H-tetrazol-5yl)-[1,1′-biphenyl]-4 yl)methyl)pentanamido)-3methylbutanoyl)oxy)phenyl)-2amino-propanoic acid] was 0.948.
The value for `CCCCC(=O)N(Cc1ccc(-c2ccccc2-c2nn[nH]n2)cc1)C(C(=O)Oc1ccccc1C(=O)O)C(C)C` (stereo not drawn) [AV11, 2-((2-(N-((2′-(2H-tetrazole-5-yl)-[1,1′-biphenyl]-4yl)methyl)pentanamido)-3-methylbutanoyl)oxy) benzoic acid] was 0.112.
